{
  "source": "paper PMC3097154",
  "about": "“Antiviral activity of α-helical stapled peptides designed from the HIV-1 capsid dimerization domain” (Retrovirology, 2011)",
  "tested_on": "wild type CTD (wtCTD) of HIV-1 CA",
  "test": "ITC dilution of CTD dimers in presence of peptide",
  "type": "binding",
  "settings": "pH 7.3",
  "procedure": "Dilution of CTD by sequential ITC injections into buffer, pH 7.3, 30°;C gave a series of endothermic heat pulses (Figure 4) consistent with dissociation of protein oligomers modeled as dimers, with dimer dissociation constant (Kdiss) ~15 μM and dissociation enthalpy (ΔHdiss) of 10.7 kcal mole^-1. […] For such a mechanism, the apparent dimer dissociation constant should depend on the free peptide (inhibitor) concentration ([I]) and binding affinity (KI) as follows: [drawing 1]\nor an approximate form that might be valid at high inhibitor concentrations: [drawing 2]\nwhere Ci is the total peptide inhibitor concentration in the mixture. This analysis is, however, further complicated by apparent self-association of the peptide (see NMR section) that reduces the availability of free monomer (lower [I]) at higher concentrations and thus leads to underestimation of peptide binding affinities and a concentration dependence of apparent Ki.\nThe influence of the peptides on dimer dissociation of wild type CTD (wtCTD) was investigated by ITC (MicroCal VP-ITC) following established protocols. Proteins were exhaustively dialyzed against the 25 mM sodium phosphate buffer (pH 7.3) prior to experimental measurements. In a typical experiment, the ITC injection syringe was loaded with 250 μM protein, dissolved in dialysis buffer or dialysis buffer/peptide mixture and the calorimetric cell (ca. 1.4 ml active volume) initially contained only the identical buffer mixture. Typically titrations consisted of 28 injections of 10 μl, with 240-s equilibration between injections. The thermodynamic parameters were obtained and data were analyzed using MicroCal Origin 7.0 software, using an updated and corrected (June 2008) version of the dissociation analysis procedure, validated by comparison with earlier analysis methods.",
  "note": "Positions of bridges follow the written chain, without caps; N, C: chain ends. Non-standard residues stand in square brackets, D forms with d. Residues, ends and D or L forms follow the SMILES beside them. S5 = C=CCCC[C@](C)(N)C(=O)O",
  "data": [
    {"smiles": "CSCC[C@@H]1NC(=O)[C@H](Cc2c[nH]c3ccccc23)NC(=O)[C@@](C)(NC(=O)[C@H](CCCCN)NC(=O)[C@@H](NC(=O)[C@H](C)NC(=O)[C@H](CCC(N)=O)NC(=O)[C@H](C)N)C(C)C)CCC/C=C\\CCC[C@@](C)(C(=O)N[C@H](C(=O)N[C@@H](CC(C)C)C(=O)N[C@@H](CC(C)C)C(=O)N[C@H](C(=O)N[C@@H](C)C(=O)N[C@@H](CCCCN)C(=O)N[C@@H](CCCCN)C(=O)N[C@@H](CCCCN)C(=O)O)C(C)C)[C@@H](C)O)NC(=O)[C@H]([C@@H](C)O)NC1=O", "note": "[NYAD-203] (H-AQAVK[S5]WMT[S5]TLLVAKKK-OH; staple (Z) 6-10; N-terminus and C-terminus assumed)", "values": [
      {"measurement": "ΔHdiss", "setting": "CI 50 μM NYAD-203, 30°C", "value": "9.1 (±0.3) kcal mole^-1"},
      {"measurement": "ΔHdiss", "setting": "CI 200 μM NYAD-203, 30°C", "value": "10.8 (±0.2) kcal mole^-1"},
      {"measurement": "ΔHdiss", "setting": "CI 350 μM NYAD-203, 30°C", "value": "10.9 (±0.2) kcal mole^-1"}
    ]}
  ]
}
